A mixed list of measured activities; the numbers were collected in NIAID ChemDB.

Common to all: whole-cell or culture tests; agent: Mycobacterium avium complex; endpoint: MIC

Neighbouring rows are from separate reports. An empty or dashed field is not shown.

SMILES,strain,method,result
NC[C@H]1O[C@H](O[C@H]2[C@H](O)[C@@H](O[C@H]3O[C@H](CO)[C@@H](O)[C@H](N)[C@H]3O)[C@H](N)C[C@@H]2N)[C@H](O)[C@@H](O)[C@@H]1O,32 isolates,-,5 µg/mL
CO[C@H]1/C=C/O[C@@]2(C)Oc3c(C)c(O)c4c(O)c(c(/C=N/N5CCN(C)CC5)c(O)c4c3C2=O)NC(=O)/C(C)=C\C=C\[C@H](C)[C@H](O)[C@@H](C)[C@@H](O)[C@@H](C)[C@H](OC(C)=O)[C@@H]1C,31F093T,-,5 µg/mL
N[C@@H]1CONC1=O,32 isolates,-,16 µg/mL
CO[C@H]1/C=C/O[C@@]2(C)Oc3c(C)c(O)c4c(O)c(c(/C=N/N5CCN(C)CC5)c(O)c4c3C2=O)NC(=O)/C(C)=C\C=C\[C@H](C)[C@H](O)[C@@H](C)[C@@H](O)[C@@H](C)[C@H](OC(C)=O)[C@@H]1C,Strain #3,-,1 µg/mL
CO[C@H]1/C=C/O[C@@]2(C)Oc3c(C)c(O)c4c(O)c(c5c(c4c3C2=O)NC2(CCN(CC(C)C)CC2)N=5)=NC(=O)/C(C)=C\C=C\[C@H](C)[C@H](O)[C@@H](C)[C@@H](O)[C@@H](C)[C@H](OC(C)=O)[C@@H]1C,31F093T,-,1.25 µg/mL
COc1ccc(/C=N/NC(=O)c2ccncc2)cc1OC,32 isolates,-,10 µg/mL
CC[C@@H](CO)NCCN[C@@H](CC)CO,168-4,-,7.5 µg/mL
Cc1c(CN2CCN(C)CC2)c(CN2CCN(C)CC2)c(-c2ccc(Cl)cc2)n1Cc1ccccc1,103317,-,>64 µg/mL
NNC(=O)c1ccncc1,1012,-,4 µg/mL
CC(C)N=c1cc2n(-c3ccc(Cl)cc3)c3ccccc3nc-2cc1Nc1ccc(Cl)cc1,Strain 1,-,0.25 µg/mL
NCCC(O)C(N)CC(=O)NC1CNC(=O)C(C2CCN=C(N)N2)NC(=O)/C(=C/NC(N)=O)NC(=O)C(CO)NC(=O)C(CO)NC1=O,32 isolates,-,3 µg/mL
CCn1cc(C(=O)O)c(=O)c2cc(F)c(N3CCNCC3)nc21,Isolate 861589,-,>30 µg/mL
CC[C@@H](CO)NCCN[C@@H](CC)CO,32 isolates,-,8 µg/mL
CC[C@@H](CO)NCCN[C@@H](CC)CO,3218,-,32 µg/mL
CO[C@H]1/C=C/O[C@@]2(C)Oc3c(C)c(O)c4c(O)c(c(/C=N/N5CCN(C/C=C/c6ccccc6)CC5)c(O)c4c3C2=O)NC(=O)/C(C)=C\C=C\[C@H](C)[C@H](O)[C@@H](C)[C@@H](O)[C@@H](C)[C@H](OC(C)=O)[C@@H]1C,LR545,-,≤0.015 µg/mL
Clc1ccc(CSc2nc3ccccc3[nH]2)cc1Cl,MY330/88,-,>32 µM
CCn1cc(C(=O)O)c(=O)c2cc(F)c(N3CCNCC3)cc21,CIPT 14031003,-,20 µg/mL
CNC1C(OC2C(OC3C(O)C(O)C(N=C(N)N)C(O)C3N=C(N)N)OC(C)C2(O)/C=N/NC(=O)c2ccncc2)OC(CO)C(O)C1O,32 isolates,-,5 µg/mL
CN[C@@H]1[C@H](O[C@H]2[C@H](O[C@H]3[C@H](O)[C@@H](O)[C@H](N=C(N)N)[C@@H](O)[C@@H]3N=C(N)N)O[C@@H](C)[C@]2(O)C=O)O[C@@H](CO)[C@H](O)[C@H]1O,Isolate C-54,-,>400 µg/mL
CO[C@H]1/C=C/O[C@@]2(C)Oc3c(C)c(O)c4c(O)c(c(/C=N/N5CCN(C)CC5)c(O)c4c3C2=O)NC(=O)/C(C)=C\C=C\[C@H](C)[C@H](O)[C@@H](C)[C@@H](O)[C@@H](C)[C@H](OC(C)=O)[C@@H]1C,N-966,-,>100 µg/mL
CO[C@H]1/C=C/O[C@@]2(C)Oc3c(C)c(O)c4c(=O)c(c5oc6cc(N7CCN(CC(C)C)CC7)cc(=O)c6nc5c4c3=C2O)NC(=O)/C(C)=C\C=C\[C@H](C)[C@H](O)[C@@H](C)[C@@H](O)[C@@H](C)[C@H](OC(C)=O)[C@@H]1C,31F093T,-,0.07 µg/mL
CO[C@H]1/C=C/O[C@@]2(C)Oc3c(C)c(O)c4c(O)c(c(/C=N/N5CCN(C)CC5)c(O)c4c3C2=O)NC(=O)/C(C)=C\C=C\[C@H](C)[C@H](O)[C@@H](C)[C@@H](O)[C@@H](C)[C@H](OC(C)=O)[C@@H]1C,Isolate A,-,1 µg/mL
C[C@@H]1CN(c2c(F)c(N)c3c(=O)c(C(=O)O)cn(C4CC4)c3c2F)C[C@H](C)N1,12,broth dilution,0.12 µg/mL
NNC(=O)c1ccncc1,-,-,>1 µg/mL
CC[C@H]1OC(=O)[C@H](C)[C@@H](O[C@H]2C[C@@](C)(OC)[C@@H](O)[C@H](C)O2)[C@H](C)[C@@H](O[C@@H]2O[C@H](C)C[C@H](N(C)C)[C@H]2O)[C@](C)(OC)C[C@@H](C)C(=O)[C@H](C)[C@@H](O)[C@]1(C)O,1012,-,8 µg/mL
NCC[C@H](O)C(=O)N[C@@H]1C[C@H](N)[C@@H](O[C@H]2O[C@H](CN)[C@@H](O)[C@H](O)[C@H]2O)[C@H](O)[C@H]1O[C@H]1O[C@H](CO)[C@@H](O)[C@H](N)[C@H]1O,549/HIV+,-,2.5 µg/mL
CC1CN(c2cc3c(cc2F)c(=O)c(C(=O)O)cn3-c2ccc(F)cc2F)CCN1,3219,-,4 µg/mL
CO[C@H]1/C=C/O[C@@]2(C)Oc3c(C)c(O)c4c(O)c(c(/C=N/N5CCN(C)CC5)c(O)c4c3C2=O)NC(=O)/C(C)=C\C=C\[C@H](C)[C@H](O)[C@@H](C)[C@@H](O)[C@@H](C)[C@H](OC(C)=O)[C@@H]1C,827/HIV+,-,2 µg/mL
NCCC(O)C(N)CC(=O)NC1CNC(=O)C(C2CCN=C(N)N2)NC(=O)/C(=C/NC(N)=O)NC(=O)C(CO)NC(=O)C(CO)NC1=O,13011 (serotype 16),-,12.5 µg/mL
CC[C@@H](CO)NCCN[C@@H](CC)CO,-,-,<0.8 µg/mL
NCC[C@H](O)C(=O)N[C@@H]1C[C@H](N)[C@@H](O[C@H]2O[C@H](CN)[C@@H](O)[C@H](O)[C@H]2O)[C@H](O)[C@H]1O[C@H]1O[C@H](CO)[C@@H](O)[C@H](N)[C@H]1O,804/HIV+,-,2 µg/mL
CCCCCCn1c(C)c(CN2CCN(C)CC2)c(CN2CCN(C)CC2)c1-c1ccc(Cl)cc1,103317,-,>64 µg/mL
CCN(CC)c1nc2c(s1)c1c(O)c3c(O)c(C)c4c(c32)C(=O)[C@@](C)(O/C=C/[C@H](OC)[C@@H](C)[C@@H](OC(C)=O)[C@H](C)[C@H](O)[C@H](C)[C@@H](O)[C@@H](C)/C=C/C=C(/C)C(=O)N1)O4,Isolate A,-,0.03 µg/mL
CN[C@@H]1[C@H](O[C@H]2[C@H](O[C@H]3[C@H](O)[C@@H](O)[C@H](N=C(N)N)[C@@H](O)[C@@H]3N=C(N)N)O[C@@H](C)[C@]2(O)C=O)O[C@@H](CO)[C@H](O)[C@H]1O,13034 (serotype 18),-,100 µg/mL
Cc1ccc(C)n1Cc1ccccc1,103317,-,>16 µg/mL
CO[C@H]1/C=C/O[C@@]2(C)Oc3c(C)c(O)c4c(O)c(c(N5CCN(Cc6c(C)cc(C)cc6C)CC5)c(O)c4c3C2=O)NC(=O)/C(C)=C\C=C\[C@H](C)[C@H](O)[C@@H](C)[C@@H](O)[C@@H](C)[C@H](OC(C)=O)[C@@H]1C,Isolate A,-,0.03 µg/mL
CO[C@H]1/C=C/O[C@@]2(C)Oc3c(C)c(O)c4c(O)c(c(/C=N/N5CCN(C)CC5)c(O)c4c3C2=O)NC(=O)/C(C)=C\C=C\[C@H](C)[C@H](O)[C@@H](C)[C@@H](O)[C@@H](C)[C@H](OC(C)=O)[C@@H]1C,32 isolates,-,1 µg/mL
O=[N+]([O-])c1ccccc1CSc1nc2ccccc2[nH]1,MY330/88,-,250 µM
CC[C@H]1OC(=O)[C@H](C)[C@@H](O[C@H]2C[C@@](C)(OC)[C@@H](O)[C@H](C)O2)[C@H](C)[C@@H](O[C@@H]2O[C@H](C)C[C@H](N(C)C)[C@H]2O)[C@](C)(O)C[C@@H](C)C(=O)[C@H](C)[C@@H](O)[C@]1(C)O,3217,-,32 µg/mL
NC(=S)c1cccc(CSc2nc3ccccc3[nH]2)c1,MY330/88,-,125 µM
COc1c(N2CCNC(C)C2)c(F)cc2c(=O)c(C(=O)O)cn(C3CC3)c12,N-444,-,2 µg/mL
S=c1[nH]c2ccccc2[nH]1,MY330/88,-,500 µM
O=C(O)c1cn(C2CC2)c2c(F)c(N3CCSCC3)c(F)cc2c1=O,PI12/39,-,4 µg/mL
CO[C@H]1/C=C/O[C@@]2(C)Oc3c(C)c(O)c4c(O)c(c(/C=N/N5CCN(C6CCCC6)CC5)c(O)c4c3C2=O)NC(=O)/C(C)=C\C=C\[C@H](C)[C@H](O)[C@@H](C)[C@@H](O)[C@@H](C)[C@H](OC(C)=O)[C@@H]1C,Serotype 6,-,2.5 µg/mL
NC1CCN(c2c(F)cc3c(=O)c(C(=O)O)cn(C4CC4)c3c2F)C1,1988557,-,8 µg/mL
COc1ccc(/C=C/NC=O)cc1,32 isolates,-,10 µg/mL
Cc1ccc(-c2ccc(Cl)cc2)[nH]1,103317,-,>16 µg/mL
CC1CCN(c2c(F)cc3c(=O)c(C(=O)O)cn(C4CC4)c3c2F)C1,1988557,-,2 µg/mL
NC[C@@H]1O[C@H](O[C@H]2[C@@H](O)[C@H](O[C@@H]3[C@@H](O)[C@H](N)C[C@H](N)[C@H]3O[C@H]3O[C@H](CO)[C@@H](O)[C@H](O)[C@H]3N)O[C@@H]2CO)[C@H](N)[C@@H](O)[C@@H]1O,542/HIV+,-,<1.56 µg/mL
O=[N+]([O-])c1ccc(CSc2nc3ccccc3[nH]2)cc1,MY330/88,-,16 µM
Cc1c(CN2CCN(C)CC2)cc(-c2ccc(Cl)cc2)n1-c1ccc(Cl)cc1,103317,-,0.4 µg/mL
CC(C)(N)C1CCN(c2c(F)cc3c(=O)c(C(=O)O)cn(C4CC4)c3c2F)C1,1760694,-,8 µg/mL
NCCC[C@H](N)CC(=O)N[C@H]1CNC(=O)[C@H]([C@H]2C[C@H](O)NC(N)=N2)NC(=O)/C(=C/NC(N)=O)NC(=O)[C@H](CO)NC(=O)[C@H](CO)NC1=O,32 isolates,-,8 µg/mL
O=[N+]([O-])c1cc(CSc2nc3ccccc3[nH]2)cc([N+](=O)[O-])c1,MY330/88,-,8 µM
N[C@@H]1CN(c2c(F)cc3c(=O)c(C(=O)O)cn([C@@H]4C[C@@H]4F)c3c2Cl)CC12CC2,N-966,-,4 µg/mL
CN(C)c1c(F)c(N2CCC(N(C)C)C2)c(F)c2c1c(=O)c(C(=O)O)cn2C1CC1,1760694,-,32 µg/mL

A second listing of 3 rows from above:

{"SMILES": "CO[C@H]1/C=C/O[C@@]2(C)Oc3c(C)c(O)c4c(O)c(c(/C=N/N5CCN(C)CC5)c(O)c4c3C2=O)NC(=O)/C(C)=C\\C=C\\[C@H](C)[C@H](O)[C@@H](C)[C@@H](O)[C@@H](C)[C@H](OC(C)=O)[C@@H]1C", "strain": "N-966", "result": ">100 µg/mL"}
{"SMILES": "COc1ccc(/C=N/NC(=O)c2ccncc2)cc1OC", "strain": "32 isolates", "result": "10 µg/mL"}
{"SMILES": "NNC(=O)c1ccncc1", "strain": "1012", "result": "4 µg/mL"}